B1: 1496_C09 (PG9) (TCN-109) (antibody, V domains shown)
VH: QRLVESGGGVVQPGSSLRLSCAASGFDFSRQGMHWVRQAPGQGLEWVAFIKYDGSEKYHADSVWGRLSISRDNSKDTLYLQMNSLRVEDTATYFCVREAGGPDYRNGYNYYDFYDGYYNYHYMDVWGKGTTVTVSS
VL: QSALTQPASVSGSPGQSITISCNGTSNDVGGYESVSWYQQHPGKAPKVVIYDVSKRPSGVSNRFSGSKSGNTASLTISGLQAEDEGDYYCKSLTSTRRRVFGTGTKLTVLG
B2: PGT-122 monoclonal antibody (4877_D15) (antibody, V domains shown)
VH: QVHLQESGPGLVKPSETLSLTCNVSGTLVRDNYWSWIRQPLGKQPEWIGYVHDSGDTNYNPSLKSRVHLSLDKSKNLVSLRLTGVTAADSAIYYCATTKHGRRIYGVVAFKEWFTYFYMDVWGKGTSVTVSS
VL: TFVSVAPGQTARITCGEESLGSRSVIWYQQRPGQAPSLIIYNNNDRPSGIPDRFSGSPGSTFGTTATLTITSVEAGDEADYYCHIWDSRRPTNWVFGEGTTLIVL
B3: 5147_N06 (PGT-130) (antibody, V domains shown)
VH: QVQLQESGPGLVKPAETLSLTCSVSGESINTGHYYWGWVRQVPGKGLEWIGHIHYTTAVLHNPSLKSRLTIKIYTLRNQITLRLSNVTAADTAVYHCVRSGGDILYYYEWQKPHWFSPWGPGIHVTVSS
VL: QSALTQPPSASGSLGQSVTISCNGTSSDIGGWNFVSWYQQFPGRAPRLIIFEVNKRPSGVPGRFSGSKSGNSASLTVSGLQSDDEGQYFCSSLFGRWDVVFGGGTKLTVL
B4: 5136_H01 (PGT-131) (antibody, V domains shown)
VH: QVQLQESGPGLVKPSETLSLTCTVSGDSINTGHHYWGWVRQVPGKGPEWIAHIHYNTAVLHNPALKSRVTISIFTLKNLITLSLSNVTAADTAVYFCVRSGGDILYYIEWQKPHWFYPWGPGILVTVSS
VL: QSALTQPPSASGSLGQSLTISCSGTGSDIGSWNFVSWYQQFPGRAPNLIIFEVNRRRSGVPDRFSGSKSGNTASLTVSGLRSEDEAEYFCSSLSGRWDIVFGGGTKVTVL
B5: 5343_B08 (PGT-135) (antibody, V domains shown)
VH: QLQMQESGPGLVKPSETLSLSCTVSGDSIRGGEWGDKDYHWGWVRHSAGKGLEWIGSIHWRGTTHYKESLRRRVSMSIDTSRNWFSLRLASVTAADTAVYFCARHRHHDVFMLVPIAGWFDVWGPGVQVTVSS
VL: EIVMTQSPDTLSVSPGETVTLSCRASQNINKNLAWYQYKPGQSPRLVIFETYSKIAAFPARFVASGSGTEFTLTINNMQSEDVAVYYCQQYEEWPRTFGQGTKVDIK
B6: 5329_C19 (PGT-136) (antibody, V domains shown)
VH: QLQLQESGPGLVKPSETLSLTCTVSGGSMRGTDWGENDFHYGWIRQSSAKGLEWIGSIHWRGRTTHYKTSFRSRATLSIDTSNNRFSLTFSFVTAADTAVYYCARHKYHDIFRVVPVAGWFDPWGQGLLVTVSS
VL: EIVMTQSPPTLSVSPGETATLSCRASQNVKNNLAWYQLKPGQAPRLLIFDASSRAGGIPDRFSGSGYGTDFTLTVNSVQSEDFGDYFCQQYEEWPRTFGQGTKVDIK
B7: 5345_I01 (PGT-137) (antibody, V domains shown)
VH: EVHLEESGPGLVRPSETLSLTCTASGGSIRGGEWGDSDYHWGWVRHSPEKGLEWIGSIHWRGTTHYNAPFRGRGRLSIDLSRNQFSLRLTSVTAEDTAVYYCVKHKYHDIVMVVPIAGWFDPWGQGLQVTVSS
VL: EIMMTQSPAILSVSPGDRATLSCRASQSVKNNLAWYQKRPGQAPRLLIFDTSSRASGIPARFSGGGSGTEFTLTVNSMQSEDFATYYCQQYEEWPRTFGQGTKVEIK
B8: 5114_A19 (PGT-128) (antibody, V domains shown)
VH: QPQLQESGPTLVEASETLSLTCAVSGDSTAACNSFWGWVRQPPGKGLEWVGSLSHCASYWNRGWTYHNPSLKSRLTLALDTPKNLVFLKLNSVTAADTATYYCARFGGEVLRYTDWPKPAWVDLWGRGTLVTVSS
VL: QSALTQPPSASGSPGQSITISCTGTSNNFVSWYQQHAGKAPKLVIYDVNKRPSGVPDRFSGSKSGNTASLTVSGLQTDDEAVYYCGSLVGNWDVIFGGGTKLTVL

Legend:
Assay in all cases: cell-based or functional assay
[1] = target: HIV-1 Env of isolate MG RM-A-009 (subtype A) (HIV-1)
[2] = target: HIV-1 Env of isolate MG RM-A-011 (subtype A) (HIV-1)
[3] = target: HIV-1 Env of isolate MG RM-A-014 (subtype A) (HIV-1)
[4] = target: HIV-1 Env of isolate MG RM-A-012 (subtype A) (HIV-1)
[5] = target: HIV-1 Env of isolate MG RM-A-010 (subtype A) (HIV-1)
[6] = target: HIV-1 Env of isolate MG RM-A-013 (subtype A) (HIV-1)
[7] = target: HIV-1 Env of isolate MG RM-AG-011 (subtype AG) (HIV-1)
[8] = target: HIV-1 Env of isolate MG RM-AG-013 (subtype AG) (HIV-1)
[9] = target: HIV-1 Env of isolate MG RM-A-005 (subtype A) (HIV-1)
[10] = target: HIV-1 Env of isolate MG RM-A-007 (subtype A) (HIV-1)
[11] = target: HIV-1 Env of isolate MG RM-AG-002 (subtype AG) (HIV-1)
[12] = target: HIV-1 Env of isolate MG RM-AG-001 (subtype AG) (HIV-1)
[13] = target: HIV-1 Env of isolate MG RM-A-003 (subtype A) (HIV-1)
[14] = target: HIV-1 Env of isolate MG RM-AG-012 (subtype AG) (HIV-1)
[15] = target: HIV-1 Env of isolate MG RM-C-004 (HIV-1)
[16] = target: HIV-1 Env of isolate MG RM-C-012 (HIV-1)
[17] = target: HIV-1 Env of isolate MG RM-C-014 (HIV-1)
[18] = target: HIV-1 Env of isolate MG RM-C-015 (HIV-1)
[19] = target: HIV-1 Env of isolate MG RM-C-017 (HIV-1)
[20] = target: HIV-1 Env of isolate MG RM-C-002 (HIV-1)
[21] = target: HIV-1 Env of isolate MG RM-C-010 (HIV-1)
[22] = target: HIV-1 Env of isolate MG RM-C-009 (HIV-1)
[23] = target: HIV-1 Env of isolate MG RM-C-013 (HIV-1)
[24] = target: HIV-1 Env of isolate MG RM-C-008 (HIV-1)
[25] = target: HIV-1 Env of isolate MG RM-C-007 (HIV-1)
[26] = target: HIV-1 Env of isolate MG RM-C-001 (HIV-1)
[27] = target: HIV-1 Env of isolate MG RM-C-005 (HIV-1)
[28] = target: HIV-1 Env of isolate MG RM-C-006 (HIV-1)
[29] = target: HIV-1 Env of isolate MG RM-C-012 (subtype C) (HIV-1)
[30] = target: HIV-1 Env of isolate MG RM-C-015 (subtype C) (HIV-1)
[31] = target: HIV-1 Env of isolate MG RM-C-017 (subtype C) (HIV-1)
[32] = target: HIV-1 Env of isolate MG RM-C-013 (subtype C) (HIV-1)
[33] = target: HIV-1 Env of isolate MG RM-C-008 (subtype C) (HIV-1)
[34] = target: HIV-1 Env of isolate MG RM-C-010 (subtype C) (HIV-1)
[35] = target: HIV-1 Env of isolate MG RM-C-009 (subtype C) (HIV-1)
[36] = target: HIV-1 Env of isolate MG RM-C-014 (subtype C) (HIV-1)

| Binder | IC50 [29] [µg/mL] | IC50 [30] [µg/mL] | IC50 [31] [µg/mL] | IC50 [32] [µg/mL] | IC50 [33] [µg/mL] | IC50 [34] [µg/mL] | IC50 [35] [µg/mL] | IC50 [36] [µg/mL] | also measured |
| --- | --- | --- | --- | --- | --- | --- | --- | --- | --- |
| B1 | – | – | – | – | – | – | – | – | IC50, pseudovirus neutralization [1]: 0.023 µg/mL; IC50, pseudovirus neutralization [2]: 0.033 µg/mL; IC50, pseudovirus neutralization [3]: 1.25 µg/mL; IC50, pseudovirus neutralization [4]: 19.3 µg/mL; IC50, pseudovirus neutralization [5]: 0.022 µg/mL; IC50, pseudovirus neutralization [6]: 0.122 µg/mL; IC50, pseudovirus neutralization [7]: 0.007 µg/mL; IC50, pseudovirus neutralization [8]: 0.259 µg/mL; IC50, pseudovirus neutralization [9]: 0.75 µg/mL; IC50, pseudovirus neutralization [10]: 1.06 µg/mL; IC50, pseudovirus neutralization [11]: 0.076 µg/mL; IC50, pseudovirus neutralization [12]: 17.1 µg/mL; IC50, pseudovirus neutralization [13]: 1.94 µg/mL; IC50, pseudovirus neutralization [14]: 22.8 µg/mL |
| B2 | – | – | – | – | – | – | – | – | neutralization IC50 [15]: 0.02 µg/mL; neutralization IC50 [16]: 2 µg/mL; neutralization IC50 [17]: > 50 µg/mL; neutralization IC50 [18]: > 50 µg/mL; neutralization IC50 [19]: 0.015 µg/mL; neutralization IC50 [20]: 0.022 µg/mL; neutralization IC50 [21]: > 50 µg/mL; neutralization IC50 [22]: > 50 µg/mL; neutralization IC50 [23]: 32.6 µg/mL; neutralization IC50 [24]: 0.028 µg/mL; neutralization IC50 [25]: 3.35 µg/mL; neutralization IC50 [26]: 19.1 µg/mL; neutralization IC50 [27]: 0.027 µg/mL; neutralization IC50 [28]: 0.018 µg/mL |
| B3 | > 50 | 0.344 | > 50 | > 50 | 7.28 | > 50 | > 50 | > 50 | – |
| B4 | > 50 | 1.01 | > 50 | > 50 | > 50 | > 50 | > 50 | > 50 | – |
| B5 | 0.017 | 0.104 | > 50 | > 50 | > 50 | > 50 | > 50 | > 50 | – |
| B6 | > 50 | 11.1 | > 50 | > 50 | > 50 | > 50 | > 50 | > 50 | – |
| B7 | 0.102 | 1.98 | > 50 | > 50 | > 50 | > 50 | > 50 | > 50 | – |
| B8 | 0.058 | 0.196 | 1.06 | > 50 | – | > 50 | > 50 | > 50 | – |

— US20160264649A1 (published 2016)
